Test results as given in publication PMC10447463, “Data-mining unveils structure–property–activity correlation of viral infectivity enhancing self-assembling peptides” (Nature Communications, 2023).

System: HIV-1 infection of TZM-bl cells
Experiment: HIV-1 infectivity enhancement assay, β-galactosidase luminescence
Type: cell-based

| Sequence | Log10 Inf. rel. to EF-C (log10 of HIV-1 infection of TZM-bl cells relative to EF-C (EF-C = 0)) | n-fold to virus (Feb2021) (Feb2021, 1.3 µM value relative to virus only (0 µM)) | Log10 of Rel to EFC (Feb2021) (Feb2021, Log10 of infectivity relative to EF-C) | Absolute Infectivity / RLU /s (Feb2021) (Feb2021, figures match the 1.3 µM column) | n-fold to virus (Feb2021) (Feb2021, infectivity relative to virus only) | Log10 of Rel to EFC (Feb2021) (Feb2021, log10 of infectivity relative to EF-C) | Rel-to EFC (Feb-2021) (Feb2021, n-fold enhancement relative to EF-C) | Rel-to EFC (Feb-2021) (Feb2021, n-fold infectivity relative to EF-C) | Absolute Infectivity / RLU /s (Feb2021) (Feb2021, unrounded values of the 1.3 µM column) | n-fold to virus (Feb2021) (Feb2021 run, infectivity n-fold relative to virus alone) | Log10 of Rel to EFC (Feb2021) (Feb2021 run, log10 of infectivity relative to EF-C) | Rel-to EFC (Feb-2021) (Feb2021 run, n-fold infectivity relative to EF-C) | infectivity (infectivity class (low / medium / high) of each library peptide, main list in c1-c6, same classes repeated in sub-lists of sequences containing the hydrophobicity/charge patterns P+,H0,P+,H0,P0,H0,P0, P+,H0,P0,H0,P0,H0,P0, P+,H0,P0,H0) | Log10 Inf. rel. to EF-C (log10 of HIV-1 infection of TZM-bl cells relative to EF-C, Fig S15 source data, asymmetric std dev errors) |
| --- | --- | --- | --- | --- | --- | --- | --- | --- | --- | --- | --- | --- | --- | --- |
| QCKAKAQANM | -1.835 | – | – | – | – | – | – | – | – | – | – | – | – | – |
| QCKAKAQANM [CK23] | – | 0.6145 | -1.835 | 563.3 RLU /s | 0.6145 | -1.835 | 0.01463 | 0.01463 | 563.3 RLU /s | 0.6145 | -1.835 | 0.01463 | low | -1.835 |
